# Only a part is listed here, and it is no random draw. Activity calls are given as the source filed them.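 Rule for the calls: active = activation above a cutoff set at the mean of all screened compounds plus 3 SD (cut at about 10% in these data); inactive = the rest.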
# Tested on: Nuclear hormone receptor DAF-12 (Heterodera glycines), GAL4 fusion
# Assay: H. glycines DAF-12 receptor agonists, primary screen, cell-based, luminescence, HEK293, GAL4 fusion, UAS-luciferase (AID 687014);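 note: 0% = DMSO wells and 100% = sodium butyrate wells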
# Conditions: HEK293 GAL4-hgDAF12 UAS-luciferase reporter, agonist luminescence; at 6.8 µM; active compounds read high; normalized to butyrate control
row,Structure (SMILES),activation
1,O=C(NCC1(N2CCCCC2)CCCCC1)c1cccc(C(F)(F)F)c1,inactive: 2%
2,COc1cc(C(=O)NCC2(N3CCCCC3)CCCCC2)ccc1OC(F)F,inactive: -1.2%
3,O=C(NCC1(N2CCOCC2)CCCCC1)c1cc(=O)[nH]c2ccccc12,inactive: -1.8%
4,CN1CCN(CCOC(=O)C(O)(c2ccccc2)c2ccccc2)CC1,inactive: 2.62%
5,CC(C)c1ccc(C(=O)NCC2(N3CCOCC3)CCCCC2)cc1,inactive: -2.88%
6,COc1ccc(NC2CCN(C(=O)OC(C)(C)C)CC2)cc1,inactive: 2.89%
7,CCCCn1nnnc1C(c1cccc2ccccc12)N1CCC(n2c(=O)[nH]c3ccccc32)CC1 (stereo unspecified),inactive: -2.99%
8,O=C(NCC1(N2CCCCC2)CCCCC1)c1ccc(OC(F)F)cc1,inactive: 1.52%
9,CC(C)(C)n1nnnc1C(c1ccccc1OC(F)(F)F)N1CCC(n2c(=O)[nH]c3ccccc32)CC1 (stereo unspecified),inactive: 3.6%
10,O=c1[nH]c2ccccc2n1C1CCN(C(c2ccccc2OC(F)(F)F)c2nnnn2C2CCCC2)CC1 (stereo unspecified),inactive: -0.6%
11,N#CC1(Nc2ccccc2)CCN(CCc2ccccc2)CC1,inactive: 2.22%
12,CCN1CCC(Nc2ccc(Cl)cc2)CC1,inactive: 2.26%
13,CSc1ccc(C(=O)NCC2(N3CCOCC3)CCCCC2)cc1,inactive: -0.97%
14,O=C(NCC1(N2CCCCC2)CCCCC1)c1cccc([N+](=O)[O-])c1,inactive: 2.96%
15,CN1CCC(Nc2cccc(F)c2)CC1,inactive: 0.3%
16,O=C(NCC1(N2CCCCC2)CCCCC1)c1cncc(Br)c1,inactive: 4.48%
17,COc1ccc(C(c2nnnn2C2CCCC2)N2CCC(n3c(=O)[nH]c4ccccc43)CC2)cc1 (stereo unspecified),inactive: -0.03%
18,CCCOc1ccc(C(=O)NCC2(N(C)C)CCCCC2)cc1OC,inactive: -1.34%
19,Cc1ccc(C(=O)NCC2(N(C)C)CCCCC2)o1,inactive: 0.67%
20,CC(C)c1ccc(NC2CCN(C(=O)OC(C)(C)C)CC2)cc1,inactive: 7.13%
21,CN(C)c1cccc(C(=O)NCC2(N3CCCCC3)CCCCC2)c1,inactive: -1.86%

row,Structure (SMILES),activation
1,COc1ccc(CN(CCCl)CCCl)cc1Cl,inactive: -5.72%
2,COC(=O)C1(Nc2ccccc2)CCN(Cc2ccccc2)CC1,inactive: -0.05%
3,CCC(c1nnnn1C(C)(C)C)N1CCC(n2c(=O)[nH]c3ccccc32)CC1 (stereo unspecified),inactive: -0.77%
4,O=C(NCC1(N2CCOCC2)CCCCC1)c1cc(F)c(F)cc1Cl,inactive: 0.24%
5,COc1cc(OC)c(C(=O)NCC2(N(C)C)CCCCC2)cc1OC,inactive: -0.15%
6,CCCCn1nnnc1C(c1ccnc2ccccc12)N1CCC(n2c(=O)[nH]c3ccccc32)CC1 (stereo unspecified),inactive: -5.11%
7,Cc1cc(C)cc(N(C(=O)c2ccccc2)C2CCN(C(=O)OC(C)(C)C)CC2)c1,inactive: -1.03%
8,O=C(NCC1(N2CCCCC2)CCCCC1)c1ccc(Cl)nc1,inactive: 0.8%
9,O=c1[nH]c2ccccc2n1C1CCN(C(c2ccccc2OC(F)(F)F)c2nnnn2C2CCCCC2)CC1 (stereo unspecified),inactive: 1.31%
10,O=C(NCC1(N2CCOCC2)CCCCC1)c1cc2ccccc2o1,inactive: -1.75%
11,COc1ccc(Cl)cc1C(=O)NCC1(N2CCOCC2)CCCCC1,inactive: 0.51%
12,N#CC1(Nc2ccccc2)CCN(Cc2ccccc2)CC1,inactive: 0.38%
13,O=C(NCC1(N2CCCCC2)CCCCC1)c1ccc(Cl)s1,inactive: -1.52%
14,O=C(OC1CN2CCC1CC2)C1c2ccccc2Oc2ccccc21 (stereo unspecified),inactive: -1.67%
15,O=c1[nH]c2ccccc2n1C1CCN(C(c2cc3ccccc3o2)c2nnnn2C2CCCCC2)CC1 (stereo unspecified),inactive: 1.07%
16,CCCCn1nnnc1C(c1ccc(OC)cc1)N1CCC(n2c(=O)[nH]c3ccccc32)CC1 (stereo unspecified),inactive: -1.04%
17,CCOC(=O)N1CCC(Nc2ccc(OC)cc2)CC1,inactive: 1.5%
18,CC(C)(C)OC(=O)N1CCC(N(C(=O)c2ccccc2)c2ccc(F)cc2)CC1,inactive: -1.11%
19,COc1ccc(C(=O)NCC2(N3CCCCC3)CCCCC2)c(OC)c1OC,inactive: -4.33%
20,CCC(c1nnnn1C1CCCC1)N1CCC(n2c(=O)[nH]c3ccccc32)CC1 (stereo unspecified),inactive: -2.05%
21,COc1ccc(C(=O)NCC2(N3CCCCC3)CCCCC2)cc1,inactive: -0.87%

row,Structure (SMILES),activation
1,O=C(NCC1(N2CCCCC2)CCCCC1)c1cccs1,inactive: -0.39%
2,CCCCn1nnnc1C(CC)N1CCC(n2c(=O)[nH]c3ccccc32)CC1 (stereo unspecified),inactive: -4.13%
3,CCCCn1nnnc1C(c1cccs1)N1CCC(n2c(=O)[nH]c3ccccc32)CC1 (stereo unspecified),inactive: -3.09%
4,O=C(NCC1(N2CCCCC2)CCCCC1)c1ccc(=O)[nH]c1,inactive: 0.11%
5,Cc1cccc(NC2(C#N)CCN(Cc3ccccc3)CC2)c1,inactive: 2.96%
6,CSc1ccccc1C(=O)NCC1(N2CCCCC2)CCCCC1,inactive: -2%
7,O=c1[nH]c2ccccc2n1C1CCN(C(c2ccccc2)c2nnnn2C2CCCCC2)CC1 (stereo unspecified),inactive: 3.35%
8,CCOC(=O)N1CCC(Nc2cccc(C)c2)CC1,inactive: -0.31%
9,COc1cc(C(=O)NCC2(N(C)C)CCCCC2)ccc1OC(F)F,inactive: -2.38%
10,O=c1[nH]c2ccccc2n1C1CCN(C(c2cccc3ccccc23)c2nnnn2C2CCCC2)CC1 (stereo unspecified),inactive: 2.17%
11,O=C1CCN(Cc2ccccc2)CC1,inactive: 1%
12,CC(C)(C)n1nnnc1C(c1ccccc1)N1CCC(n2c(=O)[nH]c3ccccc32)CC1 (stereo unspecified),inactive: 1.29%
13,CCOc1ccc(C)cc1CN(CCCl)CCCl,inactive: -1.3%
14,COc1ccc(NC2CCN(CCc3ccccc3)CC2)c(OC)c1,inactive: 0.63%
15,CCOC(=O)N1CCC(Nc2ccc(F)cc2)CC1,inactive: -0.55%
16,O=P1(N(CCCl)CCCl)SCCCS1,inactive: 1.83%
17,CCCCn1nnnc1C(c1cc2ccccc2o1)N1CCC(n2c(=O)[nH]c3ccccc32)CC1 (stereo unspecified),inactive: -1.9%
18,CCCCOc1ccc(C(=O)NCC2(N3CCOCC3)CCCCC2)cc1,inactive: 3.63%
19,O=C(NCC1(N2CCCCC2)CCCCC1)c1ccc(F)cc1,inactive: 2.48%

# — PubChem BioAssay AID687014 (The Scripps Research Institute Molecular Screening Center, 2013)
